In publication PMC7812859, “Structure of SARS-CoV-2 ORF8, a rapidly evolving immune evasion protein” (Proceedings of the National Academy of Sciences of the …, 2020):

Target: the molecule itself
Test: SEC; […]; 20 mM Tris-HCl pH 8.0, 150 mM NaCl, 1 mM EDTA; […]

B1: SARS-CoV-2 ORF8 […], wild type (Leu84 form) (domain or fragment)
chain: not shown
notes: also called wild-type ORF8
In the case of B1, the “stoichiometry N” value is reported as 2.
